Experimental data from PMC12051234, “NrdR in Streptococcus and Listeria spp.: DNA Helix Phase Dependence of the Bacterial Ribonucleotide Reductase Repressor” (Molecular Microbiology, 2025).
For some of these results: No signal at the amounts used counts as a negative. For some of these results: Protein sequences can lack the tags named with them. Construct, isoform or probe ends are uncertain for at least one entry.

Protein sequences, listed by entry. Tags and fused reporters are not part of them. Lines headed by an entry give the natural chain unless they say otherwise; changes in a name come on top.
UniProt Q8Y6W9: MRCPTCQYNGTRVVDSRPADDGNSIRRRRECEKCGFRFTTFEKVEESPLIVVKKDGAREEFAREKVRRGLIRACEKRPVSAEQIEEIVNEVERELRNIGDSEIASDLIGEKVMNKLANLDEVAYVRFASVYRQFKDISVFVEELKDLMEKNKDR
UniProt P0A8D0: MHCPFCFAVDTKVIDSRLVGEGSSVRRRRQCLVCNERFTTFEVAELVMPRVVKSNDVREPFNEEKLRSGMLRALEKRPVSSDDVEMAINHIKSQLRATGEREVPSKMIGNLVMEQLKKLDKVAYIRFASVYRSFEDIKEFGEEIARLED

Columns and labels:
Assay in all cases: MST
apo-LmoNrdR = apo-LmoNrdR (UniProt Q8Y6W9); details: temperature not stated, recombinant protein
[1] = biological target: T1, SpnNrdR (Streptococcus pneumoniae TIGR4) (UniProt P67318); details: temperature not stated, recombinant protein, residues 1-157, protein details: C-terminal His6, label: 5'-Cy5 sense
T1 sequence (looked up): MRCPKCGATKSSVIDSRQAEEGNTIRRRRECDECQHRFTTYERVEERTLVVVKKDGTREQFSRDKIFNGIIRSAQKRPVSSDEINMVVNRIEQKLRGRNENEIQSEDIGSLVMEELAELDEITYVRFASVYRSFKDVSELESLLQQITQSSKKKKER

[2] = biological target: EcoNrdR (Escherichia coli) (UniProt P0A8D0); details: dATP + ATP, temperature not stated, recombinant protein, label: 5'-Cy5 sense
[3] = ADP, residues 1-154, protein details: C-terminal His6, label: 5'-Cy5 sense
[4] = ATP, residues 1-154, protein details: C-terminal His6, label: 5'-Cy5 sense
[5] = c-di-AMP + ATP, residues 1-154, protein details: C-terminal His6, label: 5'-Cy5 sense
[6] = c-di-AMP + dATP, residues 1-154, protein details: C-terminal His6, label: 5'-Cy5 sense
[7] = c-di-AMP, residues 1-154, protein details: C-terminal His6, label: 5'-Cy5 sense
[8] = dATP + ADP, residues 1-154, protein details: C-terminal His6, label: 5'-Cy5 sense
[9] = dATP + ATP, residues 1-154, protein details: C-terminal His6, label: 5'-Cy5 sense
[10] = dATP, residues 1-154, protein details: C-terminal His6, label: 5'-Cy5 sense
[11] = no effector, residues 1-154, protein details: C-terminal His6, label: 5'-Cy5 sense

CAATAAAACTTCATCTTGTGTTATATTATTAAAGCAGACACAATATATAGTTAGTGGG (double strand) [Lmo nrdDG (16 bp spacer)]
Kd (apo-LmoNrdR; [3]): 132 nM
Kd (apo-LmoNrdR; [4]): 209 nM
Kd (apo-LmoNrdR; [5]): 130 nM
Kd (apo-LmoNrdR; [6]): 201 nM
Kd (apo-LmoNrdR; [7]): 188 nM
Kd (apo-LmoNrdR; [8]): 28 nM
Kd (apo-LmoNrdR; [9]): 2.2 nM
Kd (apo-LmoNrdR; [10]): 79 nM
Kd (apo-LmoNrdR; [11]): > 804 nM

TCGAAAATCAATATATAGTGGTTGAGATAAAAATATACCACAATATATTGATTTTCCT (double strand) [Sth nrdDG (16 bp spacer)]
Kd ([1]; ATP): > 80000 nM

AACCAAATCAATATCTTGTGTATTTTTAAAAATTTTAGGATTTTTAACACAAGATATTGATTTTCCT (double strand) [Spn nrdDG (25 bp spacer)]
Kd ([1]; dATP + ATP): 15000 nM

ACTATTTGCTATATATTGTGTGGTTGAATCTTTTTTGAATTACGGCTAATATCTCTG (double strand) [Eco nrdHIEF box 2 mutated]
Kd [2]: > 130000 nM

TCAAAACACAAGATATAGGGTTGTGTTTCAATACTAAACACAAAATATTGTATTCCTT (double strand) [Sth nrdHEF (16 bp spacer)]
Kd ([1]; ATP): > 42000 nM

GATTTGCTGAAAACCTTGTTGTAATCATTGTTTAGACACTTTTCGTAATAAAACCAG (double strand) [Negative control]
binding result (apo-LmoNrdR; effector not stated, residues 1-154, protein details: C-terminal His6, label: 5'-Cy5 sense): no binding

TTTAAAAACAATTTATAGGATAATCATTGCTATTTCACAATACAAACACTATATATTGTGTTTATA (double strand) [Spn nrdHEF box 0+1 (24 bp spacer)]
binding result ([1]; ATP): no binding
Kd ([1]; dATP + ATP): > 69000 nM

TACAAACACTATATATTGTGTTTATATATAAAAACAACAAAAGAACACCACTATATTTAGTTCAAATC (double strand) [Spn nrdHEF box 1+2 (26 bp spacer)]
Kd ([1]; ATP): > 91000 nM
Kd ([1]; dATP + ATP): 11000 nM

ACTATTTATTATGGATTATGTGGTTGAATCTTTTTTCAACTACATCTAGTATCTCTG (double strand) [Eco nrdHIEF box 1 mutated]
Kd [2]: > 69000 nM

CCAGAGTACTATATCTTGCATTCACAATGAAAAAGTTATACTATATATAGTATCGAAC (double strand) [Lmo nrdAB proximal (16 bp spacer)]
Kd (apo-LmoNrdR; [3]): 66 nM
Kd (apo-LmoNrdR; [4]): 65 nM
Kd (apo-LmoNrdR; [5]): 39 nM
Kd (apo-LmoNrdR; [6]): 34 nM
Kd (apo-LmoNrdR; [7]): 169 nM
Kd (apo-LmoNrdR; [8]): 10 nM
Kd (apo-LmoNrdR; [9]): 4.7 nM
Kd (apo-LmoNrdR; [10]): > 909 nM
Kd (apo-LmoNrdR; [11]): > 340 nM

CTTAACTACTAAATATAGAAACTAGCGAAAAAATAGGCACTAGAAGTAGTAGCATTC (double strand) [Lmo nrdAB distal (15 bp spacer)]
Kd (apo-LmoNrdR; ADP, residues 1-154, protein details: C-terminal His6): 271 nM
Kd (apo-LmoNrdR; ATP (> 508 in Fig S2), residues 1-154, protein details: C-terminal His6): 508 nM
Kd (apo-LmoNrdR; c-di-AMP + ATP (> 743 in Fig S2), residues 1-154, protein details: C-terminal His6): 743 nM
Kd (apo-LmoNrdR; c-di-AMP + dATP (> 356 in Fig S2), residues 1-154, protein details: C-terminal His6): 356 nM
Kd (apo-LmoNrdR; c-di-AMP, residues 1-154, protein details: C-terminal His6): 211 nM
Kd (apo-LmoNrdR; dATP + ADP, residues 1-154, protein details: C-terminal His6): 129 nM
Kd (apo-LmoNrdR; dATP + ATP, residues 1-154, protein details: C-terminal His6): 21.2 nM
Kd (apo-LmoNrdR; dATP, residues 1-154, protein details: C-terminal His6): > 334 nM
Kd (apo-LmoNrdR; no effector, residues 1-154, protein details: C-terminal His6): > 1700 nM
